Anti-infective test results gathered from many reports (values: NIAID ChemDB through PubChem).

All rows: tests in culture; agent: Herpes simplex virus 2

An empty or dashed field is not shown. Lines come from different laboratories, so protocols vary. ECn is the concentration giving n% inhibition of infection, replication or growth. Inhibition is in % at the dose shown (toxicity tests: loss of growth or viability).

structure,dose,cells,read by,strain or isolate,endpoint,value
O=c1ccn([C@@H]2O[C@H](CO)[C@@H](O)[C@@H]2F)c(=O)[nH]1,1 µM,VERO,virus yield,G,inhibition,91.5%
C/C=C/c1cn([C@H]2C[C@H](O)[C@@H](CO)O2)c(=O)[nH]c1=O,,PRK,virus yield,G,EC99,18 µg/mL
O=c1[nH]c(=O)n([C@@H]2O[C@H](CO)[C@@H](O)[C@@H]2F)cc1I,0.5 µM,VERO,virus yield,G,inhibition,88%
Cc1cccc(C)c1N(CC(=O)Nc1ccc(-c2ncon2)cc1)C(=O)C1CCS(=O)(=O)CC1,,HEF,plaque count,2 (G),EC90,0.46 µM
Nc1nc2c(ncn2COCCO)c(=O)[nH]1,,VERO,XTT,196,EC50,0.8 µM
N#Cc1cc([C@H]2C[C@H](O)[C@@H](CO)O2)c(F)cc1F,,E6SM,cytopathic effect,LYONS,EC50,>400 µg/mL
O=C(NCc1ccc(Cl)cc1)c1cn2c3c(cc(CN4CCOCC4)cc3c1=O)OC(c1cccnc1)C2,,HFF,plaque count,L6191429 ACV resistant,EC50,1.6 µM
OC[C@H]1O[C@H](c2cc(Br)c(F)cc2F)C[C@@H]1O,,E6SM,cytopathic effect,G,EC50,>400 µg/mL
Cn1cc(C(=O)NCc2ccc(Cl)cc2)c(=O)c2cc(CN3CCOCC3)ccc21,,HFF,plaque count,13078 (ACV-resistant),EC50,2.3 µM
Nc1nc2c(ncn2CC[C@@H](O)CO)c(=O)[nH]1,,VERO,plaque count,91075 (acyclovir-resistant),EC50,>250 µM
CC(C)=CCC[C@@H](COS(=O)(=O)O)C1CCC2C3CC[C@H]4C[C@H](OS(=O)(=O)O)[C@@H](O)CC4(C)C3CCC21C,10 µg/mL,VERO,plaque count,G,inhibition,16.6%
O=c1[nH]c(=O)n([C@H]2C[C@H](O)[C@@H](CO)O2)cc1/C=C/Br,3 µg/mL,HEP-2,cytopathic effect,K979,inhibition,≥25%
Nc1ccn([C@H]2O[C@@H](CO)[C@H](O)[C@H]2F)c(=O)n1,0.1 µM,VERO,virus yield,G,inhibition,2%
Nc1nc2c(ncn2COCCO)c(=O)[nH]1,,HFF,cytopathic effect,16064 8713 (acyclovir-resistant),EC50,>50 µg/mL
CC12CC[C@H](OS(=O)(=O)O)CC1=CCC1C2CCC2(C)C(C(=O)COS(=O)(=O)O)CCC12,40 µg/mL,VERO,plaque count,G,inhibition,18.2%
COc1cc(OC)c(NC(=S)Nc2ccc(NC(=O)c3ccccc3F)cc2Cl)cc1Cl,,HFF,ELISA,12,EC50,6.8 µg/mL
Nc1nc(=O)n([C@@H]2O[C@H](CO)[C@@H](O)[C@@H]2F)cc1I,0.1 µM,VERO,virus yield,G,inhibition,71%
Cc1cn([C@H]2C[C@H](O)[C@@H](CN)O2)c(=O)[nH]c1=O,,VERO,plaque count,Strain G,EC90,>400 µM
Nc1ccn([C@H]2C[C@H](O)[C@@H](CO)O2)c(=O)n1,,HeLa,virus yield,,EC90,5 µM
O=c1[nH]c(=O)n([C@H]2C[C@H](O)[C@@H](CO)O2)cc1I,,,,URB,MIC,11 µg/mL
CC(C)=CCCC(CO)C1CCC2C3CC=C4C[C@H](O)[C@@H](O)CC4(C)C3CCC12C,80 µg/mL,VERO,plaque count,G,inhibition,79.4%
Nc1nc2c(ncn2CC[C@H](O)CO)c(=O)[nH]1,,HEL,plaque count,91075,EC50,42 µM
O=c1[nH]c(=O)n([C@@H]2O[C@H](CO)[C@@H](O)[C@@H]2F)cc1I,0.02 µg/mL,PRK,cytopathic effect,G,inhibition,≥25%
CCOC(=O)c1ccc(OCCC2CCN(c3ccc(C)nn3)CC2)cc1,,KB,neutral red,HGP,EC50,0.0008 µM
Cc1cc([C@H]2C[C@H](O)[C@@H](CO)O2)c(Cl)cc1F,,E6SM,cytopathic effect,LYONS,EC50,>400 µg/mL
Cc1cn([C@@H]2O[C@H](CO)[C@@H](O)[C@@H]2F)c(=O)[nH]c1=O,10 µM,VERO,virus yield,G,inhibition,99.59%
O=c1[nH]c(=O)n([C@H]2C[C@H](O)[C@@H](CO)O2)cc1F,,HeLa,virus yield,,EC90,>250 µM
O=c1[nH]c(=O)n([C@H]2C[C@H](O)[C@@H](CO)O2)cc1/C=C/C(F)(F)F,,PRK,virus yield,G,EC99,100 µg/mL
OC[C@H]1O[C@@H](c2ccc(F)cc2F)C[C@@H]1O,,E6SM,cytopathic effect,196,EC50,>400 µg/mL
CC12CCC3C(C[C@H](OS(=O)(=O)O)[C@H]4C[C@@H](OS(=O)(=O)O)CCC34C)C1CCC2C(=O)CO,40 µg/mL,VERO,plaque count,G,inhibition,7.6%
Nc1nc(=O)n([C@@H]2O[C@H](CO)[C@@H](O)[C@@H]2F)cc1I,0.03 µg/mL,HEP-2,cytopathic effect,K979,inhibition,≥25%
Cc1cn([C@H]2C[C@H](O)[C@@H](CO)O2)c(=O)nc1N,,HeLa,virus yield,,EC90,125 µM